Anti-infective test results gathered from many reports (values: NIAID ChemDB through PubChem).

All rows: growth or infection tests; agent: Herpes simplex virus 1; method: cytopathic effect; measure: EC50

Blank or dashed fields: not listed here. Lines come from different laboratories, so protocols vary. ECn is the concentration giving n% inhibition of infection, replication or growth.

smiles	cells	strain	value
Nc1ccnc(O[C@H]2CO[C@H](CO)[C@@H](O)C2)n1	E6SM	TK-/TK+ (VMW 1837)	>20 µg/mL
CCc1c(CN[C@H]2CCCC[C@@H]2NCc2ccc[nH]2)c(CC)c(CN[C@H]2CCCC[C@@H]2NCc2ccc[nH]2)c(CC)c1CN[C@H]1CCCC[C@@H]1NCc1ccc[nH]1	Human embryonic lung fibroblasts	TK- KOS ACVr	>0.8 µM
CCOC(=O)CSc1nnc(-c2cn(-c3ccccc3)nc2-c2ccccc2)n1N	HEL	KOS (TK-)	>80 µg/mL
Cc1[nH]c2nc3c(ncn3COCCO[Si](C)(C)C(C)(C)C)c(=O)n2c1C(c1ccccc1)(c1ccccc1)c1ccccc1		TK-deficient acyclovir-resistant	>10 µg/mL
Cc1c(-c2ccc(F)cc2)[nH]c2nc3c(ncn3COCCO)c(=O)n12	HEL	McIntyre	0.384 µg/mL
O=c1c2ncn(COCCO)c2nc2[nH]c(-c3ccccc3)c(-c3ccc(C(c4ccccc4)c4ccccc4)cc3)n12		VMW 1837	>16 µg/mL
Nc1nc(N)c2c(ncn2[C@@H]2O[C@H](CO)[C@@H](O)[C@@H]2O)n1	VERO	HF	205 µg/mL
CCCc1cn([C@H]2C[C@H](O)[C@@H](COP(=O)(O)O)O2)c(=O)[nH]c1=O	PRK	F	4 µg/mL
Nc1ncnc2c1ncn2[C@@H]1O[C@H](CO)[C@@H](O)[C@@H]1O	PRK	KOS	4 µg/mL
Cc1cn([C@@H]2CO[C@H](CO)[C@@H](O)C2)c(=O)[nH]c1=O	E6SM	TK-/B2006	>20 µg/mL
O=C(O)/C=C/c1cn([C@@H]2O[C@H](CO)[C@@H](O)[C@@H]2O)c(=S)[nH]c1=O	RPMI8226	KOS (TK+)	>209.8 µM
Nc1nc(N)c2ncn([C@H]3CO[C@H](CO)[C@@H](O)C3)c2n1	E6SM	TK-/B2006	>20 µg/mL
O=c1[nH]c(=O)n([C@@H]2C[C@H](CO)[C@@H](O)C2)cc1Br	VERO	377	0.3 µg/mL
O=c1[nH]c(=O)n([C@H]2C[C@H](O)[C@@H](CO)O2)cc1I	HEL	KOS	0.1 µg/mL
O=c1c2ncn(COCCO)c2[nH]c2ncc(CO)n12		KOS	>3.2 µg/mL
COc1ccc2[nH]c3c(c2c1)CCN1OCSCC(N)[C@@H]31	PRK	KOS	0.045 µg/mL
CC(C1=NNC(=Nc2ccccc2)SC1)N1C(=O)c2ccccc2C1=O	VERO	VR733	77.04 µg/mL
CCc1cn([C@H]2C[C@H](O)[C@@H](CO)O2)c(=O)[nH]c1=O	PRK	KOS	0.2 µg/mL
C[C@H]1[C@H](O)[C@@H](CO)O[C@H]1n1cc(I)c(=O)[nH]c1=O	RPMI8226	F	7.14 µg/mL
O=c1[nH]c(=O)n(C2CC(O)C(CO)O2)cc1CCCCl	PRK	F	0.26 µg/mL
Nc1nc(=O)n([C@@H]2O[C@H](CO)[C@@H](O)[C@@H]2F)cc1I	HSF	KOS	0.02 µg/mL
COc1ccc(-c2[nH]c3nc4c(ncn4COCCO)c(=O)n3c2-c2ccc(C(c3ccccc3)c3ccccc3)cc2)cc1		VMW 1837	>16 µg/mL
CCc1cn([C@@H]2O[C@H](CO)[C@@H](O)[C@@H]2O)c(=S)[nH]c1=O	RPMI8226	A4-3 (TK-)	>264.9 µM
Nc1nc2c(ncn2COCCO)c(=O)[nH]1	HFF	H31191 (acyclovir-susceptible)	1 µg/mL
O=c1[nH]c(=O)n([C@H]2C[C@H](O)[C@@H](CO)O2)cc1I	PRK		0.1 µg/mL
COc1nc(=O)n([C@H]2C[C@H](O)[C@@H](CO)O2)cc1/C=C/Cl	PRK	F	0.2 µg/mL
Nc1ccn([C@@H]2C[C@H](CO)[C@@H](O)[C@H]2O)c(=O)n1	VERO	HF	68 µg/mL
C[C@H]1[C@H](O)[C@@H](CO)O[C@H]1n1cc(Br)c(=O)[nH]c1=O	RPMI8226	F	7.34 µg/mL
O=c1c2ncn(COCCO)c2nc2[nH]c(-c3ccccc3)c(Cc3ccc(F)cc3)n12	HEL	KOS	>16 µg/mL
Nc1nc(N)c2c(nnn2[C@@H]2O[C@H](CO)[C@@H](O)[C@H]2O)n1	VERO	HF	100 µg/mL
O=c1[nH]c(=O)n([C@H]2C[C@H](O)[C@@H](COP(=O)(O)O)O2)cc1/C=C/c1ccccc1	PRK	F	30 µg/mL
CC1(C)[C@@H](CO)CC[C@@]1(C)Cn1nnc2c(Cl)ncnc21	E6SM	KOS	>400 µg/mL
COc1ccc(-c2[nH]c3nc4c(ncn4COCCO)c(=O)n3c2C)cc1	HEL	KOS	0.384 µg/mL
c1c[nH]c(CNCc2cc(CNCc3ccc[nH]3)cc(CNCc3ccc[nH]3)c2)c1	Human embryonic lung fibroblasts	TK- KOS ACVr	>20 µM
CCCCNc1cn([C@@H]2C[C@H](CO)[C@@H](O)C2)c(=O)[nH]c1=O	PRK	377	25 µg/mL
O=c1[nH]c(=O)n([C@H]2C[C@H](O)[C@@H](COP(=O)(O)O)O2)cc1I	PRK	F	0.07 µg/mL
C[C@H]1[C@H](O)[C@@H](CO)O[C@H]1n1cc(I)c(N)nc1=O	RPMI8226	A4-3	>100 µg/mL
O=c1[nH]c(=O)n([C@@H]2O[C@H](CO)[C@@H](O)[C@@H]2O)cc1/C=C/Br	HEL	KOS	0.01 µg/mL
O=c1[nH]c(=S)n([C@@H]2O[C@H](CO)[C@@H](O)[C@@H]2O)cc1/C=C/Br	RPMI8226	A4-3 (TK-)	>213 µM
CC(C)CC(C1=NNC(=Nc2ccccc2)SC1)N1C(=O)c2ccccc2C1=O	VERO	VR733	>111 µg/mL
CCc1cn([C@H]2C[C@H](O)[C@@H](COP(=O)(O)O)O2)c(=O)[nH]c1=O	HSF	B2006 (TK-)	≥820 µg/mL
Nc1nc(=S)n([C@@H]2O[C@H](CO)[C@@H](O)[C@@H]2O)cc1CO	RPMI8226	A4-3 (TK-)	>253.5 µM
NC1=Nn2c(nnc2-c2cn(-c3ccccc3)nc2-c2ccccc2)SC1	HEL	KOS (TK-)	>16 µg/mL
Nc1ncnc2c1ncn2[C@@H]1O[C@H](COP(=O)(O)O[C@@H]2[C@H](O)[C@@H](COP(=O)(O)O[C@@H]3[C@H](O)[C@@H](COP(=O)(O)OP(=O)(O)OC[C@@H]4OC(O)[C@H](O)[C@H](O)[C@H]4O)O[C@H]3n3cnc4c(N)ncnc43)O[C@H]2n2cnc3c(N)ncnc32)[C@@H](O)[C@H]1O	E6SM		70 µg/mL
c1ccc(C2=Nn3c(nnc3-c3cn(-c4ccccc4)nc3-c3ccccc3)SC2)cc1	HEL	KOS	>3.2 µg/mL
O=c1[nH]c(=O)n([C@H]2C[C@H](O)[C@@H](CO)O2)cc1CCCl	PRK	F	0.15 µg/mL
Nc1nc2c(ncn2COC(CO)CO)c(=O)[nH]1	Human embryonic lung fibroblasts	KOS	0.05 µM
CC(C1=NNC(=Nc2ccccc2)SC1)N1C(=O)c2ccc(Br)cc2C1=O	VERO	VR733	>111 µg/mL
CC1(C)[C@@H](CO)CC[C@@]1(C)Cn1cc(Br)c(=O)[nH]c1=O	E6SM	KOS	>400 µg/mL
CCc1cn([C@@H]2O[C@H](CO)[C@@H](O)[C@@H]2O)c(=S)nc1N	RPMI8226	A4-3 (TK-)	>264.9 µM
C[C@H]1[C@H](O)[C@@H](CO)O[C@H]1n1cc(Cl)c(=O)[nH]c1=O	RPMI8226	KOS	>47.4 µg/mL
NC1=CC(c2ccccc2)=Nn2c(nnc2-c2cn(-c3ccccc3)nc2-c2ccccc2)S1	HEL	KOS (TK-)	>80 µg/mL
CC(O)c1cn([C@@H]2O[C@H](CO)[C@@H](O)[C@@H]2O)c(=S)[nH]c1=O	RPMI8226	A4-3 (TK-)	>263.5 µM
O=c1[nH]c(=O)n([C@H]2CC[C@@H](CO)O2)cc1/C=C/Br	PRK	F	0.007 µg/mL
OC[C@H]1C[C@@H](n2cnc3c(Cl)ncnc32)[C@H](O)[C@@H]1O	VERO	HF	13.8 µg/mL
CC(=O)OCCOCn1cnc2c(=O)n3cc(-c4ccc5ccccc5c4)[nH]c3nc21		VMW 1837	>16 µg/mL
CON1CCc2c([nH]c3ccccc23)[C@@H]1[C@@H](N)CSC	PRK	VMW1837 (TK-/TK+)	100 µg/mL
[N-]=[N+]=Nc1cccc(/C=C/c2cn([C@H]3C[C@H](O)[C@@H](COP(=O)(O)O)O3)c(=O)[nH]c2=O)c1	PRK	McIntyre	>200 µg/mL
Cc1c(-c2ccc(C(F)(F)F)cc2)[nH]c2nc3c(ncn3COCCO)c(=O)n12	HEL	F	1.92 µg/mL
CCc1cc(CC)c(CNCc2ccc[nH]2)c(CC)c1	Human embryonic lung fibroblasts	TK- KOS ACVr	>20 µM
Nc1nc2c(ncn2COCCO)c(=O)[nH]1	T-21	KOS	0.04 µg/mL
Cc1ccn2c(CSCCO)cnc2c1	E6SM	KOS	>200 µg/mL
O=c1[nH]c(=O)n([C@H]2C[C@H](O)[C@@H](CO)O2)cc1I	RPMI8226	KOS	>4.63 µg/mL
NC1CSCCN2CCc3c([nH]c4ccccc34)[C@H]12	E6SM	VMW1837 (TK-/TK+)	1 µg/mL
Cc1cn([C@H]2C[C@H](O)[C@@H](CO)O2)c(=S)[nH]c1=O	RPMI8226	A4-3 (TK-)	>302.6 µM
O=c1[nH]c(=O)n([C@H]2C[C@H](O)[C@@H](CO)O2)cc1/C=C\Cl	PRK	B2006 (TK-)	>200 µg/mL
O=C1c2ccccc2C(=O)N1C(Cc1ccccc1)C1=NNC(=Nc2ccccc2)SC1	VERO	VR733	12.34 µg/mL
CC1(C)[C@@H](CO)CC[C@@]1(C)Cn1cc(I)c(=O)[nH]c1=O	E6SM	KOS	>400 µg/mL

Repeating the first 4 entries:

{"smiles": "Nc1ccnc(O[C@H]2CO[C@H](CO)[C@@H](O)C2)n1", "cells": "E6SM", "strain": "TK-/TK+ (VMW 1837)", "value": ">20 µg/mL"}
{"smiles": "CCc1c(CN[C@H]2CCCC[C@@H]2NCc2ccc[nH]2)c(CC)c(CN[C@H]2CCCC[C@@H]2NCc2ccc[nH]2)c(CC)c1CN[C@H]1CCCC[C@@H]1NCc1ccc[nH]1", "cells": "Human embryonic lung fibroblasts", "strain": "TK- KOS ACVr", "value": ">0.8 µM"}
{"smiles": "CCOC(=O)CSc1nnc(-c2cn(-c3ccccc3)nc2-c2ccccc2)n1N", "cells": "HEL", "strain": "KOS (TK-)", "value": ">80 µg/mL"}
{"smiles": "Cc1[nH]c2nc3c(ncn3COCCO[Si](C)(C)C(C)(C)C)c(=O)n2c1C(c1ccccc1)(c1ccccc1)c1ccccc1", "strain": "TK-deficient acyclovir-resistant", "value": ">10 µg/mL"}